In the series the test system is CC1(C)S[C@@H]2[C@H](NC(=O)[C@H](N)c3ccccc3)C(=O)N2[C@H]1C(=O)O. As to the kind of experiment: purified protein. To be noted: pH 6.4; 25.0 °C.

As a reminder, the Km is the concentration of substrate that gives half-maximal velocity. (Mycobacterium tuberculosis H37Rv): the Km was 130 µM.

Values taken from article PMC8383266 (Biochemistry, 2021).
